# Record: PubChem BioAssay AID504761 (Drosophila RNAi Screening Center, 2011)
# Screen: 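Fly genes whose silencing reduces dengue virus type 2 infection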 (primary screen)
# Cell system: D.Mel-2 cells from Drosophila
# Knock-down reagent: long dsRNA against Drosophila genes
# Challenge: infection with dengue virus type 2; dose and infection time not stated
# Measurement: 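Cells stained for dengue envelope protein and imaged; percent of infected cells per well on duplicate plates, ranked by infection, with stained nuclei counted for cell number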
# Reading the numbers: infection score: higher = more virus-infected cells; cell count: higher = more cells in the well
# Active means: 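Very low infection ranking in both replicate wells (chance probability at most 0.065), then a retest showing infection dropped 1.5-fold or more at p below 0.05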
# Calls: active = confirmed: knock-down lowers infection; inactive = not picked or not confirmed
# In all, the deposit lists about 22,000 reagents; below is a random part of those with a known target gene and a result. Over the whole deposit, 116 (0.52%) were called active. 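Calls depend on retest data that are not deposited; infection was ranked per plate without normalising between plates; the unit of the infection score is not given.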 Raw values are not corrected between plates. Unmarked entries are inactive. Reagents against one gene are numbered here. Names joined by + are all predicted targets of the reagent. The record does not give: the amount of reagent, the time to read-out.
gene,reagent,"infection score, replicate 1","infection score, replicate 2","cell count, replicate 1","cell count, replicate 2"
Ugt301D1,1,4.67,6.37,5721,5873
LKRSDH,1,2.58,18.1,6115,5854
LKRSDH,2,9.94,7.88,6411,6041
Lsd-2,1,10.2,1.94,6171,6684
Lsd-2,2,21.6,20.9,6170,5552
CG11247,1,2.75,6.67,7336,7017
CG11247,2,,3.93,392,636
CG11247,3,13.1,21.4,5908,5581
RpS5a,1,16.5,4.35,5831,5658
Trs20,1,0.6,2.37,5522,5104
Trs33,1,1.1,2.18,5722,6182
CG30100 + CG42372,1,9.71,7.04,5255,6672
t-Grip128,1,1.33,0.97,6374,5981
t-Grip128,2,10.6,3.18,6529,6893
mthl7,1,2.71,1.29,6045,6596
alka,1,7.43,9.29,6781,6545
AstA-R1,1,1.59,5.81,6788,6678
AstA-R1,2,,24.5,323,5996
wg,1,5.04,4.91,5716,5682
wg,2,20.6,13.9,6250,5922
Muc68E,1,1.07,1.04,6163,6182
Muc68E,2,1.95,5.42,5944,5724
CG32846,1,0.55,0.19,6532,6462
CG32846,2,5.18,2.56,6280,6940
CG11113,1,2.08,3.83,6305,6679
ND-B14.5AL,1,6.67,7.1,6523,6729
ND-B14.5AL,2,13.7,9.09,6072,6027
Mnat9,1,6.08,,6494,482
CG14763,1,10.4,3.31,5903,695
CG14763,2,12,19.1,5618,5403
dao,1,0.85,3.38,6919,6717
dao,2,6.81,6.94,5731,5546
RpS15Ab + RpS15Aa,1,13,13.9,2105,1708
RpS15Ab + RpS15Aa,2,2.94,7.51,2208,2011
CG33095,1,10.4,7.41,2467,6773
mRpL30,1,,12.1,338,1166
mRpL30,2,7.24,4.49,4726,5304
Tcs4,1,3.8,1.54,6291,6035
Tcs4,2,0.28,3.13,353,862
Gbeta76C,1,6.02,20.2,6888,5848
SdhBL,1,7.57,8.98,5743,4902
CG32052,1,1.15,1.52,6240,6458
CG32052,2,2.15 (active),1.39,6921,6601
CG5910,1,4.88,3.06,6144,6435
CG13344,1,27.6,23,4055,5906
Menl-2 + Menl-1,1,41.5,22.1,5333,5913
Menl-2 + Menl-1,2,19,5.64,5500,6068
Menl-2 + Menl-1,3,,16.6,416,4918
dbr,1,19,3.58,3424,5622
msb1l,1,37.8,12.9,5324,6762
msb1l,2,2.42,5.77,6807,5771
Octalpha2R,1,9.39,4.91,6251,5500
Octalpha2R,2,0.76,0.37,6073,6258
CG3655,1,16.1,0.69,4338,6365
CG3655,2,7.69,0.65,2029,6820
CG3655,3,1.82,1.24,7079,7325
CG32568,1,6.03,10.1,6413,5903
CG17221,1,2.43,25.6,6245,6056
CG17221,2,7.17,29.6,6245,6781

Reformatted: entries from further up
| gene | reagent | infection score, replicate 1 | infection score, replicate 2 | cell count, replicate 1 | cell count, replicate 2 |
| --- | --- | --- | --- | --- | --- |
| CG11247 | 2 | – | 3.93 | 392 | 636 |
| CG11247 | 3 | 13.1 | 21.4 | 5908 | 5581 |
| RpS5a | 1 | 16.5 | 4.35 | 5831 | 5658 |
| Trs20 | 1 | 0.6 | 2.37 | 5522 | 5104 |
| Trs33 | 1 | 1.1 | 2.18 | 5722 | 6182 |
